Assay results: the supplement of paper PMC3578754

What was measured:
[1] = compound: COC(=O)N[C@H](C(=O)N[C@@H](Cc1ccccc1)[C@@H](O)CN(Cc1ccc(-c2ccccn2)cc1)NC(=O)[C@@H](NC(=O)OC)C(C)(C)C)C(C)(C)C [atazanavir]; assay: fold change of IC50 against reference virus; higher = more resistant; Cell-culture drug susceptibility tests of virus bearing the protease of each isolate, gathered from many studies.
[2] = compound: Cc1cn([C@H]2C[C@H](N=[N+]=[N-])[C@@H](CO)O2)c(=O)[nH]c1=O [zidovudine]; assay: fold change of IC50 against reference virus; higher = more resistant
Description: (§1)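 Cell-culture drug susceptibility tests of virus bearing the reverse transcriptase of each isolate, gathered from many studies.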

[3] = compound: Cc1ccnc2c1NC(=O)c1cccnc1N2C1CC1 [nevirapine]; assay: as above
Description: as §1

[4] = compound: O=c1[nH]cnc2c1ncn2[C@H]1CC[C@@H](CO)O1 [didanosine]; assay: as above
Description: as §1

Row | Test System | fold change of IC50 against reference virus [1] | fold change of IC50 against reference virus [2] | fold change of IC50 against reference virus [3] | fold change of IC50 against reference virus [4]
1 | HIV-1 isolate 8 (protease changes: L10Y I50L L63P A71V N88S, study 43) | 93 |  |  | 
2 | HIV-1 isolate 191 (protease changes: V32I M46I A71V N88S, study 43) | 12 |  |  | 
3 | HIV-1 isolate 492 (protease changes: N88S, study 43) | 4 |  |  | 
4 | HIV-1 isolate 630 (protease changes: V32I M46I R57G I84V, study 43) | 6 |  |  | 
5 | HIV-1 isolate 872 (protease changes: V32I L33F M46I A71V I84V N88S, study 43) | 183 |  |  | 
6 | HIV-1 isolate 950 (protease changes: M46I N88S, study 43) | 6 |  |  | 
7 | HIV-1 isolate 1064 (reverse transcriptase changes: V75I F77L K102Q F116Y Q151M S162C Y181C K277R I293V R358K V435I S468P K550G, study 128) |  | 200 | 200 | 17
8 | HIV-1 isolate 1098 (protease changes: V32I M46I R57G I84V L89M, study 43) | 96 |  |  | 
9 | HIV-1 isolate 1284 (reverse transcriptase changes: K102Q S162C K277R I293V R358K V435I S468P K550G, study 45) |  | 1 | 1 | 1
10 | HIV-1 isolate 1308 (protease changes: L10Y I50L A71V N88S, study 43) | 36 |  |  | 
11 | HIV-1 isolate 1463 (reverse transcriptase changes: V35K T39E S48T V60I T139A K173T D177E I178M G196E T200A Q207E, study 99) |  | 1 | 2 | 1.2
12 | HIV-1 isolate 1480 (reverse transcriptase changes: M41L L74V K122E F214L T215Y A272P K277R M357T A376T A400T N447S D460N S468T S519N, study 13) |  | 2 | 1 | 7.1
13 | HIV-1 isolate 1535 (reverse transcriptase changes: L74V K102Q S162C Y181C T215Y K277R I293V R358K V435I S468P K550G, study 45) |  | 4 | 30 | 8
14 | HIV-1 isolate 1539 (reverse transcriptase changes: M41L L74V K122E Y181C F214L T215Y A272P K277R M357T A376T A400T N447S D460N S468T S519N, study 17) |  | 7 | 110 | 4.5
15 | HIV-1 isolate 1629 (reverse transcriptase changes: M41L L74V K122E Y181C F214L T215Y A272P K277R M357T A376T A400T N447S D460N S468T S519N, study 13) |  | 2 | 60 | 7.1

Fold change is the IC50 on the isolate divided by the IC50 on a reference virus; 1 = unchanged, higher = more resistant. Changes are given against the subtype B consensus. No active / inactive call. The values were gathered from many studies (numbered anew) with different assays, which the source does not name. Most viruses are clinical isolates; some are laboratory strains or clones with known resistance changes. Isolates with mixed residues are left out; stretches that were not sequenced show no change. Round top values that many isolates share are read here as limits; other very high values and 0.1 may be limits too. For some assays here: The protease changes I3V and N37S, insertions and deletions cannot be read from the source.
